Pooled drug test results. Numbers come from NIAID ChemDB, via PubChem.

All rows: whole-cell or culture tests; agent: HIV-1

Conditions beyond the fields shown may differ between rows. ECn is the concentration giving n% inhibition of infection, replication or growth. An empty or dashed field is not shown.

| compound | strain or isolate | changes | endpoint | method | cells | result |
|---|---|---|---|---|---|---|
| CO[C@@H]1[C@@H](OC(=O)c2ccc(C)[nH]2)[C@@H](O)C(Oc2ccc3c(O)c(NC(=O)c4c[nH]c(C(=O)Nc5c(O)c6ccc(OC7OC(C)(C)[C@H](OC)[C@@H](OC(=O)c8ccc(C)[nH]8)[C@H]7O)c(C)c6oc5=O)c4C)c(=O)oc3c2C)OC1(C)C | - | - | EC50 | cytopathic effect / MTT | MT-4 | 1.5 µg/mL |
| Nc1ccn([C@H]2CC[C@@H](CO)O2)c(=O)n1 | Clone AZT-resistant RT M41L T215Y | RT-M41L T215Y | EC50 | syncytia | MT-4 | 0.043 µM |
| O=c1[nH]cnc2c1ncn2[C@H]1CC[C@@H](CO)O1 | IIIB | - | EC50 | p24 | MT-4 | 4.2 µM |
| CCN(CC)C(=O)Oc1nsnc1-c1c(Cl)cccc1Cl | IIIB-R (RT-Y181C) | RT-Y181C | EC50 | cytopathic effect / MTT | MT-4 | 9.4 µM |
| CC(C)(C)NC(=O)[C@@H]1C[C@@H]2CCCC[C@@H]2CN1C[C@@H](O)[C@H](Cc1ccccc1)NC(=O)[C@H](CC(N)=O)NC(=O)c1ccc2ccccc2n1 | Isolate A PR L10V/T12I/G16E/R57K/I64V | PR-L10V T12I G16E R57K I64V | EC95 | p24 | PBMC | 0.025 µM |
| CCn1cc(C(=O)O)c(=O)c2ccc(C)nc21 | - | - | EC50 | antigen | HuT-78 + HUT 78 | >79 µg/mL |
| O=C(CSc1nnnn1-c1c(Cl)cccc1Cl)Nc1ccccc1Cl | - | - | EC95 | p24 | MT-4 | <10 µM |
| O=C1c2ccccc2C(=O)N1CCOC(=S)N(C(=O)c1cccs1)c1ccc(Cl)cc1 | N119 nevirapine-resistant (RT Y181C) | RT-Y181C | EC50 | cytopathic effect / MTT | MT-4 | >100 µM |
| C=C(C)[C@@H]1CC[C@]2(C(=O)NCCCCCCCC(=O)N[C@@H](CC(C)C)[C@H](O)CC(=O)O)CC[C@]3(C)[C@H](CC[C@@H]4[C@@]5(C)CC[C@H](O)C(C)(C)[C@@H]5CC[C@]43C)[C@@H]12 | 89.6 | - | EC50 | RT activity | PBMC | <1.84 µM |
| O=[N+]([O-])c1ccc(Cn2c(Cl)nc3cc(Cl)c(Cl)cc32)cc1 | IIIB | - | EC50 | plaque count / syncytia | CEM + CEM-SS | 7.8 µM |
| Nc1ncnc2c1ncn2/C=C1/C[C@H]1CO | - | - | EC50 | - | MT-4 | 13 µM |
| CC(C)CN(C[C@@H](O)[C@H](Cc1ccccc1)NC(=O)O[C@H]1CCO[C@H]2OCC[C@H]21)S(=O)(=O)c1ccc2nc(NC3CC3)sc2c1 | NL4-3 | L10I M46L I54V V82A | EC50 | p24 / luminescence | MT-4 | 0.0032 µM |
| S=C(NCCc1ccccn1)Nc1ccc(Br)cn1 | IIIB | - | EC50 | cytopathic effect / MTT | C8166 | <0.015 µM |
| C=C(COCP(=O)(O)O)Cn1cnc2c(=O)[nH]c(N)nc21 | IIIB | - | EC50 | - | MT-4 | 6.6 µM |
| CC(C)OC(=O)OCOP(=O)(CO[C@H](C)Cn1cnc2c(N)ncnc21)OCOC(=O)OC(C)C | G691-2 AZT-resistant (RT D67N K70R T215Y K219Q) | RT-D67N K70R T215Y K219Q | EC50 | p24 | MT-2 | 0.003 µM |
| CC(Sc1nnnn1-c1cccc2ccccc12)C(=O)Nc1ccccc1Cl | - | - | EC50 | p24 | MT-4 | <10 µM |
| Nc1ncnc2c1ncn2/C=C1/C[C@@H]1CO | - | - | EC50 | - | CEM + CEM-SS | >100 µM |
| O=C(Oc1nsnc1-c1c(Cl)cccc1Cl)N1CCCCC1 | IIIB | - | EC50 | cytopathic effect / MTT | MT-4 | 0.96 µM |
| Nc1nc2cc(Cl)c(Cl)cc2n1Cc1ccc(Cl)cc1 | IIIB | - | EC50 | RT activity | CEM + CEM-SS | 10 µM |
| CCN[C@H]1CO[C@@H]2OCC[C@H](OC(=O)N[C@@H](Cc3cccc(OC)c3)[C@H](O)CN(CC(C)C)S(=O)(=O)c3ccc4nc(NC(C)C)sc4c3)[C@@H]21 | NL4-3 | L10F K20T D30N K45I A71V V77I | EC50 | p24 / luminescence | MT-4 | 0.0032 µM |
| CN(C)C(=O)Oc1nsnc1-c1ccc(Cl)c(Cl)c1 | IIIB | - | EC50 | cytopathic effect / MTT | MT-4 | >315 µM |
| Nc1nc2c(ncn2CCOCP(=O)(O)O)c(=O)[nH]1 | IIIB | - | EC50 | - | MT-4 | 0.54 µM |
| COC[C@@H](c1ccc(C(F)(F)F)cc1)N1CCN(C2(C)CCN(C(=O)c3c(C)ncnc3C)CC2)C[C@@H]1C | - | G516V M518V F519I | EC50 | luciferase | PBMC | 0.00019 µM |
| O=C1c2ccccc2C(=O)N1CCOC(=S)N(C(=O)c1ccco1)c1ccc([N+](=O)[O-])cc1 | IIIB | - | EC50 | cytopathic effect / MTT | C8166 | <0.005 µM |
| Nc1ccn([C@H]2CC[C@@H](CO)O2)c(=O)n1 | - | - | EC50 | cytopathic effect / XTT | MT-4 | 0.1 µM |
| CN(C)C(=O)Oc1nsnc1-c1ccc(Cl)cc1 | IIIB | - | EC50 | cytopathic effect / MTT | MT-4 | >353 µM |
| Cc1cc(C)c(-n2nnnc2SCC(=O)Nc2ccc(Cl)cc2[N+](=O)[O-])c(C)c1 | - | - | EC95 | p24 | MT-4 | <10 µM |
| CC(C)CN(C[C@@H](O)[C@H](Cc1ccccc1)NC(=O)O[C@H]1CCOC1)S(=O)(=O)c1ccc(N)cc1 | NL4-3 | L10F L33I M36I M46I I54V K55R I62V L63P A71V G73S V82T | EC50 | p24 / luminescence | MT-4 | >1 µM |
| CCCN(C)C(=O)Oc1nsnc1-c1c(Cl)cccc1Cl | IIIB | - | EC50 | cytopathic effect / MTT | MT-4 | 0.013 µM |
| CCOP(=O)(OC[C@H]1O[C@@H](n2cc(C)c(=O)[nH]c2=O)C[C@@H]1F)SCC(=O)NC | - | - | EC50 | cytopathic effect / XTT | MT-4 | 0.01 µM |
| CN[C@H]1CO[C@@H]2OCC[C@H](OC(=O)N[C@@H](Cc3cccc(OC)c3)[C@H](O)CN(CC(C)C)S(=O)(=O)c3ccc4nc(NC(C)C)sc4c3)[C@@H]21 | NL4-3 | L10I M46L I54V V82A | EC50 | p24 / luminescence | MT-4 | 0.0087 µM |
| COc1ccc(Cn2c(Br)nc3cc(Cl)c(Cl)cc32)cc1 | IIIB | - | EC50 | plaque count / syncytia | CEM + CEM-SS | 6 µM |
| CN[C@H]1CO[C@@H]2OCC[C@H](OC(=O)N[C@@H](Cc3ccccc3)[C@H](O)CN(CC(C)C)S(=O)(=O)c3ccc4nc(NC5CC5)sc4c3)[C@@H]21 | NL4-3 | L10I N37D G48V I54V L63P G73C I84V L90M | EC50 | p24 / luminescence | MT-4 | 0.027 µM |
| Cc1cc(C)c(-n2nnnc2SCC(=O)Nc2ccc(C#N)cc2)c(C)c1 | - | - | EC95 | p24 | MT-4 | <10 µM |
| Nc1nc(=O)n([C@@H]2CS[C@H](CO)O2)cc1F | NL4-3 | A114S | EC50 | GFP | TZM-gfp | 0.54 µM |
| Nc1nc(NC2CC2)c2ncn([C@H]3C=C[C@@H](CO)C3)c2n1 | LAI | - | EC50 | RT activity | PBMC | 0.3 µM |
| O=C1N(Cc2ccc(CO)cc2)[C@H](Cc2ccccc2)[C@H](O)[C@@H](O)[C@@H](Cc2ccccc2)N1Cc1ccc(CO)cc1 | NL4-3 | PR-M46I V82T | EC95 | p24 | MT-4 | 0.4 µM |
| Nc1ccn([C@H]2CC[C@@H](CO)O2)c(=O)n1 | IIIB | - | EC50 | p24 | MT-4 | 0.45 µM |
| CNC(=O)CSP(=O)(NCC(=O)OC)OCCOCn1cnc2c(=O)[nH]c(N)nc21 | - | - | EC50 | cytopathic effect / XTT | MT-4 | 70 µM |
| O=C1c2ccccc2C(=O)N1CCOC(=S)N(C(=O)c1ccco1)c1ccc(Cl)cc1 | N119 nevirapine-resistant (RT Y181C) | RT-Y181C | EC50 | cytopathic effect / MTT | MT-4 | >100 µM |
| Nc1nc(=O)n([C@@H]2CS[C@H](CO)O2)cc1F | RF | - | EC50 | cytopathic effect / MTT | MT-4 | 2.02 µM |
| Nc1nc2c(ncn2COCCO)c(=O)[nH]1 | - | - | EC50 | cytopathic effect / XTT | MT-4 | >100 µM |
| Cc1cc(C)c(-n2nnnc2SCC(=O)Nc2cccc([N+](=O)[O-])c2)c(C)c1 | - | - | EC50 | p24 | MT-4 | <10 µM |
| COC(=O)N[C@H](C(=O)N[C@@H](Cc1ccccc1)[C@@H](O)CN(Cc1ccc(-c2ccccn2)cc1)NC(=O)[C@@H](NC(=O)OC)C(C)(C)C)C(C)(C)C | LAI | - | EC50 | RT activity | PBMC | 0.007 µM |
| Cc1cccc(Cn2c(Br)nc3cc(Cl)c(Cl)cc32)c1 | IIIB | - | EC50 | plaque count / syncytia | CEM + CEM-SS | 3.5 µM |
| CN(C)c1ccc(-n2nnnc2SCC(=O)Nc2ccccc2Cl)c2ccccc12 | - | - | EC95 | p24 | MT-4 | <10 µM |
| CCN(CC)CC.COC(=O)CNP(=O)(O)OC[C@H]1O[C@@H](n2cc(C)c(=O)[nH]c2=O)C[C@@H]1F | - | - | EC50 | cytopathic effect / XTT | MT-4 | 7 µM |
| Nc1nc2c(ncn2[C@H]2C=C[C@@H](CO)C2)c(=O)[nH]1 | LAI | - | EC50 | RT activity | PBMC | 0.08 µM |
| Clc1ccc(Cn2c(Br)nc3cc(Cl)c(Cl)cc32)cc1Cl | IIIB | - | EC50 | plaque count / syncytia | CEM + CEM-SS | >100 µM |
| Cc1cn([C@H]2C=C[C@@H](CO)O2)c(=O)[nH]c1=O | - | - | EC50 | cytopathic effect / XTT | MT-4 | 0.3 µM |
| O=C(CSc1nnnn1-c1cccc2ccccc12)Nc1ccc(Cl)cc1Cl | - | - | EC50 | p24 | MT-4 | <10 µM |
| Nc1ccn([C@H]2CC[C@@H](CO)O2)c(=O)n1 | RF | RT-M184I | EC50 | cytopathic effect / MTT | MT-4 | 0.22 µM |
| CC(C)OC(=O)OCOP(=O)(CO[C@H](C)Cn1cnc2c(N)ncnc21)OCOC(=O)OC(C)C | LAI | - | EC50 | RT activity | PBMC | 0.01 µM |
| Cc1cc(C)c(-n2nnnc2SCC(=O)Nc2cccc(Cl)c2F)c(C)c1 | - | - | EC95 | p24 | MT-4 | <10 µM |
| Cc1cn([C@H]2C=C[C@@H](CO)O2)c(=O)[nH]c1=O | RF | - | EC50 | cytopathic effect | C8166 | 1 µg/mL |

The last 4 rows once more:

Nc1ccn([C@H]2CC[C@@H](CO)O2)c(=O)n1 ; strain or isolate: RF ; changes: RT-M184I ; endpoint: EC50 ; method: cytopathic effect / MTT ; cells: MT-4 ; result: 0.22 µM
CC(C)OC(=O)OCOP(=O)(CO[C@H](C)Cn1cnc2c(N)ncnc21)OCOC(=O)OC(C)C ; strain or isolate: LAI ; endpoint: EC50 ; method: RT activity ; cells: PBMC ; result: 0.01 µM
Cc1cc(C)c(-n2nnnc2SCC(=O)Nc2cccc(Cl)c2F)c(C)c1 ; endpoint: EC95 ; method: p24 ; cells: MT-4 ; result: <10 µM
Cc1cn([C@H]2C=C[C@@H](CO)O2)c(=O)[nH]c1=O ; strain or isolate: RF ; endpoint: EC50 ; method: cytopathic effect ; cells: C8166 ; result: 1 µg/mL